In publication doi:10.1101/2022.07.05.498809:
Construct, isoform or probe ends are uncertain for at least one entry.

Tested on: His-MBP-AlpA (Pseudomonas aeruginosa ID40)
Assay: EMSA

## CGGTGTTGCACGCGGCGGGACGCTCGCGGTAGTTTTTTCCCATGATCACG (double strand) [ABE probe (ampDh3 promoter)]
1.25 uM protein, 0.3125 nM probe, weak, smeary shift
  binding result: binds
Plus BSA (5 and 12.5 uM), complex unaffected
  binding result: binds
